Laboratory results published in publication doi:10.1101/2025.02.13.638143v1.

Test system: CNc1ccccc1C(=O)O[C@@H]1[C@@H]2OP(=O)(O)OC[C@H]3O[C@@H](n4cnc5c(=O)[nH]c(N)nc54)[C@H](O)[C@@H]3OP(=O)(O)OC[C@H]2O[C@H]1n1cnc2c(=O)[nH]c(N)nc21
Assay: purified protein
Details: pH 8.0; 37.0 °C

With “(Vibrio cholerae O1 biovar El Tor str. N16961)” the Km was 11 ± 3 µM.
